A mixed list of measured activities; the numbers were collected in NIAID ChemDB.

Common to all: whole-cell or culture tests; species: Herpes simplex virus 1; read-out: EC50

ECn is the concentration giving n% inhibition of infection, replication or growth. An empty or dashed field is not shown. Neighbouring rows are from separate reports.

SMILES,cell line,strain,result
CC(=O)NC1C(O)OC(CO)C(O)C1OC1OC(C(=O)[O-])C(OC2OC(CO)C(O)C(OC3OC(C(=O)[O-])C(O)C(O)C3O)C2NC(C)=O)C(O)C1O.[Na+].[Na+],-,KOS,>400 µg/mL
Cc1cn([C@@H]2CC3(CO2)COC(C)(C)O3)c(=O)[nH]c1=O,CCL18,-,>100 µM
CCCCCCc1cn([C@@H]2OC3COP(=O)(O)OC3[C@H]2O)c(=O)nc1N,-,F,>400 µg/mL
O=c1[nH]c(=O)n(C2CC(O)C(CO)O2)cc1-c1ccc(Br)o1,-,KOS,0.15 µM
CSCC[C@H](N)C(=O)OCCOCn1cnc2c(=O)[nH]c(N)nc21,VERO,SC16,1.4 µM
O=C1O[C@H](CO)C[C@]1(O)CO,CCL18,-,>100 µM
O=c1ccn([C@@H]2C[C@H](CO)C[C@H]2CO)c(=O)[nH]1,E6SM,KOS,>100 µg/mL
O=C(NCc1ccc(Cl)cc1)c1c[nH]c2c(F)cc(CCCO)cc2c1=O,-,ARAA13 (V813M (III)),0.1 µM
Nc1ccn([C@@H]2C[C@](O)(CO)CO2)c(=O)n1,CCL18,-,>100 µM
COc1ncnc2c1cnn2Cc1cn(CCCCO)nn1,E6SM,VWM1837,>400 µg/mL
CC(=O)OCCOCN1C(N)=CC(N)=NS1(=O)=O,E6SM,B206 (TK-),>400 µg/mL
CC[C@H](C)[C@H](N)C(=O)OCCOCn1cnc2c(=O)[nH]c(N)nc21,VERO,SC16,<6.25 µM
CC(C)c1cn([C@@H]2OC3COP(=O)(O)OC3[C@H]2O)c(=O)nc1N,-,F,>400 µg/mL
Cc1cn([C@@H]2C[C@](O)(CO)CO2)c(=O)[nH]c1=O,CCL18,-,>100 µM
Cc1cn([C@@H]2OC3COP(=O)(O)OC3[C@H]2O)c(=O)nc1N,-,McIntyre,>400 µg/mL
CC(C)[C@H](N)C(=O)OCCOCn1cnc2c(=O)[nH]c(N)nc21,VERO,SC16,0.84 µM
Cc1ccn2c(C3SCCS3)cnc2c1,E6SM,KOS,>1000 µM
Cc1cn([C@@H]2O[C@H](COP(=O)(O)O)[C@@H](O)[C@H]2O)c(=O)nc1N,-,KOS,>400 µg/mL
Cc1ccn2c(C(SCCc3ccccc3)SCCc3ccccc3)cnc2c1,E6SM,KOS,>1000 µM
Nc1ncnc2c1cnn2Cc1cn(CCCCO)nn1,E6SM,B2006 (TK-),>400 µg/mL
O=C(NCc1ccc(Cl)cc1)c1c[nH]c2c(F)cccc2c1=O,-,F891C,3.3 µM
C[C@H](N)C(=O)OCCOCn1cnc2c(=O)[nH]c(N)nc21,VERO,SC16,2.8 µM
O=c1[nH]c(=O)n(C2CC(O)C(CO)O2)cc1-c1cc(Br)no1,-,KOS,7 µM
NCCCCC(N)C(=O)OCCOCn1cnc2c(=O)[nH]c(N)nc21,VERO,SC16,1.42 µM
O=c1[nH]cnc2c1cnn2Cc1cn(CCCCO)nn1,E6SM,B2006 (TK-),>400 µg/mL
CCc1cn([C@@H]2OC3COP(=O)(O)OC3[C@H]2O)c(=O)nc1N,-,F,>400 µg/mL
CC(=O)OCCOCN1C(=N)/C(=C(\C)O)C(N)=NS1(=O)=O,E6SM,VMW1837 (TK-),>400 µg/mL
CSc1ncnc2c1cnn2Cc1cn(CCCCO)nn1,E6SM,VWM1837,>400 µg/mL
CC1(C)OCC2(COC(O)C2)O1,CCL18,-,>100 µM
Cc1cn([C@H]2CC[C@@H](CO)O2)c(=S)[nH]c1=O,-,Hangal,0.21 µg/mL
CC1=CC(=O)N(c2ccccc2)S(=O)(=O)N1COCCO,E6SM,KOS,>400 µg/mL
CC(=O)OC[C@H]1O[C@@H](n2cc(-c3cc(-c4ccc(C(C)C)cc4)no3)c(=O)[nH]c2=O)CC[C@@H]1O,-,-,0.08 µg/mL
O=c1[nH]c(=O)n([C@@H]2C[C@H](CO)C[C@H]2CO)cc1I,E6SM,KOS (TK-),>100 µg/mL
Cc1ccn2c(C3OCCO3)cnc2c1,E6SM,VMW 1837 (TK+/TK-),>1000 µM
CC(=O)OCCOCN1C=CC(=O)N(COCCO)S1(=O)=O,E6SM,VMW1837 (TK-),>400 µg/mL
Cc1ccn2c(C3OCCS3)cnc2c1,E6SM,B2006 (TK-),>1000 µM
CC(=O)OCCOCN1C=CC(=O)NS1(=O)=O,E6SM,B206 (TK-),>400 µg/mL
CCCCc1cn([C@@H]2OC3COP(=O)(O)OC3[C@H]2O)c(=O)nc1N,-,McIntyre,>400 µg/mL

For reference, 5 entries again:

SMILES | cell line | strain | result
Cc1cn([C@H]2CC[C@@H](CO)O2)c(=S)[nH]c1=O | - | Hangal | 0.21 µg/mL
Nc1ncnc2c1cnn2Cc1cn(CCCCO)nn1 | E6SM | B2006 (TK-) | >400 µg/mL
CC1=CC(=O)N(c2ccccc2)S(=O)(=O)N1COCCO | E6SM | KOS | >400 µg/mL
CC(=O)NC1C(O)OC(CO)C(O)C1OC1OC(C(=O)[O-])C(OC2OC(CO)C(O)C(OC3OC(C(=O)[O-])C(O)C(O)C3O)C2NC(C)=O)C(O)C1O.[Na+].[Na+] | - | KOS | >400 µg/mL
Nc1ccn([C@@H]2C[C@](O)(CO)CO2)c(=O)n1 | CCL18 | - | >100 µM